Measured values from several laboratories, pooled; numbers as filed in NIAID ChemDB.

All rows: growth or infection tests; organism: Mycobacterium smegmatis

Neighbouring rows are from separate reports. A number after MIC or MFC names an inhibition level or a share of isolates. An empty or dashed field is not shown.

SMILES	changes	strain or isolate	read by	read-out	value
Cc1c(N2C[C@@H](CN)[C@H](C(F)(F)F)C2)c(F)cn2c(=O)c(C(=O)O)cc(C3CC3)c12.Cl		ATCC114		MIC	0.05 µg/mL
NC1CCN(c2nc3c(cc2F)c(=O)c(C(=O)O)cn3C2CC2)C1		ATCC 19420		MIC	0.13 µg/mL
NNC(=O)c1ccncc1			absorbance	MIC	36.46 µM
CCN1CCN(c2c(F)cc3c(=O)c(C(=O)O)cn(-c4ccc(F)cc4F)c3c2F)CC1		ATCC 19420		MIC	2 µg/mL
Cc1c2cc[n+](CCN3CCCCC3)cc2c(C)c2c1[nH]c1ccc(O)cc12		mc2155		MIC	25 µM
Cc1c(N2CCC(N(C)C)CC2)c(F)cn2c(=O)c(C(=O)O)cc(C3CC3)c12		ATCC114		MIC	0.2 µg/mL
Cc1nc(-c2ccc(Cl)cc2)sc1-c1csc(Cc2ccc(F)cc2)n1			absorbance	MIC	74.64 µM
Cc1cc(N)c2ccccc2[n+]1CCCCCCCCCC[n+]1c(C)cc(N)c2ccccc21		mc2155		MIC	3.125 µM
C[C@H](CO)NCCN[C@@H](C)CO		ATCC 607		MIC	6 µg/mL
COC(=O)Cc1ccc2[nH]c3cc(Cl)ccc3c2c1			resazurin / visual reading / absorbance	MIC99	>500 µg/mL
CC(O)C(C)NCCNC(C)C(C)O.Cl.Cl		ATCC 607		MIC	>250 µg/mL
S=C(S)N1CCCC1		mc2155		MIC	>100 µM
CCC[C@@H](CO)NCCN[C@@H](CO)CCC		ATCC 607		MIC	60 µg/mL
CC1CN(c2cc3c(cc2F)c(=O)c(C(=O)O)cn3C2CC2)CCN1		KD2003 (GYRA D95G)		MIC99	2.8 µg/mL
COc1ccc(-c2c(C)c(C(=O)O)nc(-c3ccc4c(O)c(OC)c5c(c4n3)=NC(C)(C)N=5)c2N)c(O)c1OC		mc2155		MIC	25 µM
CC(C)(C)c1cnc(C(=O)/C=C/c2ccc(Cl)cc2)cn1		CCM	absorbance	MIC	>250 µg/mL
CCn1cc(C(=O)O)c(=O)c2cc(F)c(N3CCNC(C)C3)nc21		ATCC 19420		MIC	1 µg/mL
CC(C)(CO)NCCNC(C)(C)CO.Cl.Cl		ATCC 607		MIC	60 µg/mL
Cc1c(N2CCC(N3CCCCC3)CC2)c(F)cn2c(=O)c(C(=O)O)cc(C3CC3)c12.O=C(O)C(F)(F)F		ATCC114		MIC	0.78 µg/mL
COC(=O)Cc1cccc2[nH]c3ccc(Cl)cc3c12			resazurin / visual reading / absorbance	MIC99	>500 µg/mL
COc1c(N2CCNC(C)C2)c(F)cc2c(=O)c(C(=O)O)cn(-c3ccc(F)cc3F)c12		ATCC 19420		MIC	4 µg/mL
Cc1ccc(-c2nc(-c3sc(-c4ccc(F)cc4)nc3C)cs2)cc1			absorbance	MIC	>100 µM
CC(C)(C)c1cnc(C(=O)/C=C/c2ccccc2F)cn1		CCM	absorbance	MIC	>500 µg/mL
CCN1CCN(c2c(F)cc3c(=O)c(C(=O)O)cn(C4CC4)c3c2F)CC1		KD2012 (GYRA G89A)		MIC99	0.43 µg/mL
CNc1ccc2oc(C[C@@H]3OC4(CC[C@@H]3C)O[C@H](C(C)C(=O)c3ccc[nH]3)[C@H](C)C[C@H]4C)nc2c1C(=O)O	G457A	mc2155	resazurin	MIC	2.5 µg/mL
CCC1CN(c2c(F)cc3c(=O)c(C(=O)O)cn(C4CC4)c3c2OC)CCN1		KD1987 (GYRA A91V)		MIC99	0.38 µg/mL
CC1CN(c2nc3c(cc2F)c(=O)c(C(=O)O)cn3C(C)(C)C)CCN1		ATCC 19420		MIC	0.06 µg/mL
COc1ccccc1-c1ccc2[nH]c3cc(C(C)C(=O)O)ccc3c2c1			resazurin / visual reading / absorbance	MIC99	>500 µg/mL
Cc1c(N2CCCC(n3cccc3)C2)c(F)cn2c(=O)c(C(=O)O)cc(C3CC3)c12		ATCC114		MIC	6.2 µg/mL
CN(C)[C@@H]1C(=O)C(C(N)=O)=C(O)[C@@]2(O)C(=O)C3=C(O)c4c(O)cccc4[C@@](C)(O)[C@H]3C[C@@H]12		PSB51 LFR (CCCP)		MIC	0.5 µg/mL
C[C@H]1COc2c(N3CCC(O)C3)c(F)cn3c(=O)c(C(=O)O)cc1c23		ATCC114		MIC	25 µg/mL
CCOc1c(N2CC(C)NC(C)C2)c(F)cc2c(=O)c(C(=O)O)cn(C3CC3)c12		ATCC 19420		MIC	0.13 µg/mL
Cc1nc(-c2ccccc2)sc1-c1csc(Cc2ccc(Cl)cc2)n1			absorbance	MIC	>100 µM
COc1c(N2CCNC(C)C2)c(F)cc2c(=O)c(C(=O)O)cn(C3CC3)c12		KD1990 (GYRA D95A)		MIC99	0.22 µg/mL
COC(=O)Cc1ccc2[nH]c3ccc(C(F)(F)F)cc3c2c1			resazurin / visual reading / absorbance	MIC99	>500 µg/mL
Cc1c(N2C[C@@H](N)C[C@@H]2C)c(F)cn2c(=O)c(C(=O)O)cc(C3CC3)c12.Cl		ATCC114		MIC	0.2 µg/mL
Cc1nc(-c2ccc(F)cc2)sc1-c1csc(Cc2ccccc2)n1			absorbance	MIC	>100 µM
CC1CN(c2c(F)cc3c(=O)c(C(=O)O)cn(C4CC4)c3c2F)CC(C)N1		KD2012 (GYRA G89A)		MIC99	0.24 µg/mL
CCCCc1cnc(C(=O)/C=C/c2ccccc2Br)cn1		CCM	absorbance	MIC	15.6 µg/mL
CCC1CN(c2cc3c(cc2F)c(=O)c(C(=O)O)cn3C2CC2)CCN1		KD2008 (GYRA G89C)		MIC99	3.2 µg/mL
COC(=O)C(C)c1ccc2c(c1)[nH]c1ccc(Cl)cc12			resazurin / visual reading / absorbance	MIC99	>500 µg/mL
C/C(=N\Nc1ccc2ccccc2n1)c1ccccc1O		mc2155		MIC	>100 µM
O=C(O)Cc1cccc2[nH]c3ccc(Cl)cc3c12			resazurin / visual reading / absorbance	MIC99	500 µg/mL
COC(=O)N[C@H]1[C@@H](C)O[C@@H](O[C@H]2C/C=C(\C)C3C=CC4C([C@@H](C)C[C@H](O[C@@H]5C[C@H](C)[C@H](O)[C@@](O)(C6C[C@@H](O)[C@H](O[C@H]7CC[C@@H](OC)[C@H](C)O7)[C@H](C)O6)C5)[C@@H]4O)[C@]3(C)C(O)=C3C(=O)OC4(CC(C=C(CO)[C@@H]4C)/C=C/2C)C3=O)C[C@]1(C)[N+](=O)[O-]		mc2155		MIC	50 µM
CCCCCCCCCCCCCCCC[N+](C)(C)CC		MC^2 552 (ciprofloxacin-resistant)		MIC	8 µg/mL
COC(=O)Cc1ccc2[nH]c3ccc(Cl)cc3c2c1			resazurin / visual reading / absorbance	MIC99	>500 µg/mL
CC(C)N1CCN(c2c(F)cc3c(=O)c(C(=O)O)cn(C4CC4)c3c2F)CC1		KD1990 (GYRA D95A)		MIC99	2.4 µg/mL
CN(C)[C@@H]1C(=O)C(C(N)=O)=C(O)[C@@]2(O)C(=O)C3=C(O)c4c(O)ccc(Cl)c4[C@@H](O)[C@H]3C[C@@H]12		mc2155		MIC	3.125 µM
CCCc1cnc(C(=O)/C=C/c2ccccc2F)cn1		CCM	absorbance	MIC	15.6 µg/mL
CC[C@@H](C(=O)[C@@H](C)[C@@H](O)[C@H](C)[C@@H]1O[C@@H]([C@@H](CC)C(=O)O)CC[C@@H]1C)[C@H]1O[C@@]2(C=C[C@@H](O)[C@@]3(CC[C@@](C)([C@H]4CC[C@](O)(CC)[C@H](C)O4)O3)O2)[C@H](C)C[C@@H]1C	C20 insertion	mc2155	resazurin	MIC	2.5 µg/mL
Cc1ccc(-c2nc(C)c(-c3csc(Cc4ccc(F)cc4)n3)s2)cc1			absorbance	MIC	96.32 µM
CNC1CN(c2c(F)cn3c(=O)c(C(=O)O)cc(C4CC4)c3c2C)CC1O.Cl		ATCC114		MIC	0.78 µg/mL
C[C@H]1NCc2cc(-c3ccc4c(=O)c(C(=O)O)cn(C5CC5)c4c3OC(F)F)ccc21		6 strains		Median MIC	0.13 µg/mL
O=C(/C=C/c1ccccc1F)c1cnccn1		CCM	absorbance	MIC	15.6 µg/mL
CCn1cc(C(=O)O)c(=O)c2cc(F)c(N3CCNCC3)nc21		ATCC 19420		MIC	1.6 µg/mL
Cc1nc(-c2ccc(Cl)cc2)sc1-c1csc(-c2cccc(Cl)c2)n1			absorbance	MIC	>100 µM
COC(=O)c1c(C)ccc2c(O)c3c(cc12)C(=O)c1c2c(cc(O)c1C3=O)C1(C)OC(C)(O2)C(O)C(N(C)C)C1O		mc2155		MIC	50 µM
CC1CN(c2c(F)cc3c(=O)c(C(=O)O)cn(C4CC4)c3c2F)CCN1		KD1998 (GYRA D95N)		MIC99	1.3 µg/mL
CCC(CO)NCCNC(C)C		ATCC 607		MIC	15 µg/mL
O=C(O)c1cn(C2CC2)c2nc(N3CCNCC3)c(F)cc2c1=O		ATCC 19420		MIC	0.5 µg/mL
COc1c(N2CCN(C(C)C)CC2)c(F)cc2c(=O)c(C(=O)O)cn(C3CC3)c12		KD2012 (GYRA G89A)		MIC99	0.85 µg/mL
COc1c(N2CC(C)NC(C)C2)c(F)cc2c(=O)c(C(=O)O)cn(-c3ccc(F)cc3F)c12		ATCC 19420		MIC	16 µg/mL
CC(CO)(CO)NCCNC(C)(CO)CO.Cl.Cl		ATCC 607		MIC	250 µg/mL
Cc1ccc2[nH]c3ccc(CC(=O)O)cc3c2c1			resazurin / visual reading / absorbance	MIC99	>500 µg/mL
Cc1c(N2CCN(C)CC2)c(F)cn2c(=O)c(C(=O)O)cc(C3CC3)c12		ATCC114		MIC	1.56 µg/mL

The last 7 rows once more:

SMILES	changes	strain or isolate	read by	read-out	value
CCC(CO)NCCNC(C)C		ATCC 607		MIC	15 µg/mL
O=C(O)c1cn(C2CC2)c2nc(N3CCNCC3)c(F)cc2c1=O		ATCC 19420		MIC	0.5 µg/mL
COc1c(N2CCN(C(C)C)CC2)c(F)cc2c(=O)c(C(=O)O)cn(C3CC3)c12		KD2012 (GYRA G89A)		MIC99	0.85 µg/mL
COc1c(N2CC(C)NC(C)C2)c(F)cc2c(=O)c(C(=O)O)cn(-c3ccc(F)cc3F)c12		ATCC 19420		MIC	16 µg/mL
CC(CO)(CO)NCCNC(C)(CO)CO.Cl.Cl		ATCC 607		MIC	250 µg/mL
Cc1ccc2[nH]c3ccc(CC(=O)O)cc3c2c1			resazurin / visual reading / absorbance	MIC99	>500 µg/mL
Cc1c(N2CCN(C)CC2)c(F)cn2c(=O)c(C(=O)O)cc(C3CC3)c12		ATCC114		MIC	1.56 µg/mL